The Kd is the constant that tells how readily two partners part at equilibrium. A lower Kd goes with higher affinity.

This assay concerns the target human angiotensin-converting enzyme 2 receptor (human) (UniProt Q9BYF1). In words: SPR; BIAcore assay; who was immobilised and the conditions are not given. (In general: SPR reads the build-up and loss of mass on a sensor chip optically.)

Substance “SARS-CoV-2 RBD206 (I332-K537) (from UniProt P0DTC2 332-537) (domain or fragment; other documents disagree on this pair)” came in with a dissociation constant Kd of 1.16 nM.
